Assay results published in paper PMC4914392 (Bioorganic & medicinal chemistry, 2016).

Assay: Fluorescence properties in MeOH and H2O
Details: excitation at 305 nm

CCN(CC)CC.Nc1nc(-c2ccccc2)cc2c1nnn2[C@@H]1O[C@H](COS(=O)(=O)NC(=O)c2ccccc2O)[C@@H](O)[C@H]1O [Compound 6a, 4-Amino-1-{5-O-[N-(2-hydroxybenzoyl)sulfamoyl]-β-D-ribofuranosyl}-6-phenyl-1H-[1,2,3]triazole[4,5-c]pyridine triethylammonium salt]
Fluorescence emission λmax (H2O): 433 nm
Fluorescence emission λmax (MeOH): 419 nm

CCN(CC)CC.Cc1ccc(-c2cc3c(nnn3[C@@H]3O[C@H](COS(=O)(=O)NC(=O)c4ccccc4O)[C@@H](O)[C@H]3O)c(N)n2)cc1 [Compound 6b, 4-Amino-1-{5-O-[N-(2-hydroxybenzoyl)sulfamoyl]-β-D-ribofuranosyl}-6-(4-methylphenyl)-1H-[1,2,3]triazole[4,5-c]pyridine triethylammonium salt]
Fluorescence emission λmax (H2O): 433 nm
Fluorescence emission λmax (MeOH): 412 nm

CCN(CC)CC.Nc1nc(-c2ccc(F)cc2)cc2c1nnn2[C@@H]1O[C@H](COS(=O)(=O)NC(=O)c2ccccc2O)[C@@H](O)[C@H]1O [Compound 6c, 4-Amino-6-(4-fluorophenyl)-1-{5-O-[N-(2-hydroxybenzoyl)sulfamoyl]-β-D-ribofuranosyl}-1H-[1,2,3]triazole[4,5-c]pyridine triethylammonium salt]
Fluorescence emission λmax (H2O): 442 nm
Fluorescence emission λmax (MeOH): 420 nm

CCN(CC)CC.Nc1nc(-c2ccc(C(F)(F)F)cc2)cc2c1nnn2[C@@H]1O[C@H](COS(=O)(=O)NC(=O)c2ccccc2O)[C@@H](O)[C@H]1O [Compound 6d, 4-Amino-1-{5-O-[N-(2-hydroxybenzoyl)sulfamoyl]-β-D-ribofuranosyl}-6-(4-trifluoromethylphenyl)-1H-[1,2,3]triazole[4,5-c]pyridine triethylammonium salt]
Fluorescence emission λmax (H2O): 422 nm
Fluorescence emission λmax (MeOH): 409 nm

CCN(CC)CC.Nc1nc(-c2ccc3ccccc3c2)cc2c1nnn2[C@@H]1O[C@H](COS(=O)(=O)NC(=O)c2ccccc2O)[C@@H](O)[C@H]1O [Compound 6e, 4-Amino-1-{5-O-[N-(2-hydroxybenzoyl)sulfamoyl]-β-D-ribofuranosyl}-6-(napht-2-yl)-1H-[1,2,3]triazole[4,5-c]pyridine triethylammonium salt]
Fluorescence emission λmax (H2O): 420 nm
Fluorescence emission λmax (MeOH): 412 nm

CCN(CC)CC.COc1ccc2cc(-c3cc4c(nnn4[C@@H]4O[C@H](COS(=O)(=O)NC(=O)c5ccccc5O)[C@@H](O)[C@H]4O)c(N)n3)ccc2c1 [Compound 6f, 4-Amino-1-{5-O-[N-(2-hydroxybenzoyl)sulfamoyl]-β-D-ribofuranosyl}-6-(6-methoxynapht-2-yl)-1H-[1,2,3]triazole[4,5-c]pyridine triethylammonium salt]
Fluorescence emission λmax (H2O): 425 nm
Fluorescence emission λmax (MeOH): 418 nm
